# Values of other authors in patent US10071176B2, “Disinfection composition, disinfection method, disinfection protocol for tooth brushes, and disinfection product” (priority 2013, dated 2018).
smiles,measurement,setting,value
"[H]/N=C(\N/C(=N/[H])NCCCCCCNC(=N)NC(=N)Nc1ccc(Cl)cc1)Nc1ccc(Cl)cc1 [Chlorhexidine, chlorhexidine]",residual action,Perionews 2011,up to 12 hours
same,substantivity (active residence time),Zanatta and Rösing 2007,approximately 12 hours
